Results of unrelated studies side by side (data: NIAID ChemDB).

Shared fields: tests on isolated targets; organism: HIV-1; target: Integrase; endpoint: IC50

a–b is a range or a potency band. Lines come from different laboratories, so protocols vary. ICn is the concentration giving n% inhibition.

smiles,method,result
O=c1c(Cc2ccccc2)cn2ccn(Cc3cccc(Cl)c3)c(=O)c2c1O,ELISA,0.01–0.1 µM
O=C(O)/C(O)=C/C(=O)N(Cc1ccc(F)cc1)c1ccc(Cl)cc1,strand transfer,<70 µM
Cc1ccc(CNC(=O)c2nc3n(c(=O)c2O)CCNCC3N(C)C(=O)C(=O)N(C)C)cc1Cl,ELISA,<10 µM
CN(C(=O)/C=C(\O)C(=O)O)C(c1ccc(F)cc1)c1ccc(F)cc1,strand transfer,<70 µM
CC(=O)N1CCOCC1Cn1c(=O)c(O)c2n(c1=O)CCN(Cc1ccc(F)cc1)C2=O,strand transfer,<10 µM
CC(C)N(CCCc1ccccc1)C(=O)/C=C(\O)C(=O)O,strand transfer,<70 µM
CN(C)C(=O)C(=O)N(C)C1CN(Cc2ccccc2)CCn2c1nc(C(=O)NCc1ccc(F)cc1)c(O)c2=O,ELISA,<10 µM
O=C(O)/C(O)=C/C(=O)N(CCCc1ccccc1)c1ccc(Cl)cc1,strand transfer,<70 µM
O=C1c2c(O)c(=O)cc(CCO)n2CCN1Cc1ccc(Cl)c(Cl)c1,ELISA,0.01–0.1 µM
CC1(C)c2nc(C(=O)NCc3ccc(F)cc3)c(O)c(=O)n2CCN1Cc1ccn[nH]1,ELISA,<10 µM
Cc1ccc(CN(C)C(=O)/C=C(\O)C(=O)O)cc1,strand transfer,<70 µM
CN(C)C(=O)C(=O)N(C)C1CN(C2CC2)CCn2c1nc(C(=O)NCc1ccc(F)c(Cl)c1)c(O)c2=O,ELISA,<10 µM
O=c1c(-c2ccccc2C(F)(F)F)cn2ccn(Cc3cccc(Cl)c3)c(=O)c2c1O,ELISA,<0.01 µM
O=C(NCc1ccc(F)cc1)c1nc2n(c(=O)c1O)CN1CCSC21,ELISA,<10 µM
O=C1c2c(O)c(=O)n(C3Cc4ccccc4C3)c(=O)n2CCN1Cc1ccc(F)cc1,strand transfer,<10 µM
CN(Cc1cccc(C(F)(F)F)c1)C(=O)/C=C(\O)C(=O)O,strand transfer,<70 µM
CC1(C)c2nc(C(=O)NCc3ccc(F)cc3)c(O)c(=O)n2CCN1CC(=O)N1CCOCC1,ELISA,<10 µM
O=C(O)/C(O)=C/C(=O)N(CCc1ccccc1)Cc1ccccc1,strand transfer,<70 µM
O=C1c2c(O)c(=O)n(C3CCSc4ccccc43)c(=O)n2CCN1Cc1ccc(F)cc1,strand transfer,<10 µM
CN(C)CCN1CCn2c(nc(C(=O)NCc3ccc(F)cc3)c(O)c2=O)C1(C)C,ELISA,<10 µM
CC(C)Cc1cn(Cc2ccc(Cl)c(Cl)c2)c(=O)c2c(O)c(=O)ccn12,ELISA,<0.01 µM
O=C(O)CN1CCn2c(nc(C(=O)NCc3ccc(F)cc3)c(O)c2=O)C1,ELISA,<10 µM
CC(C)C(=O)c1cn2c(c(O)c1=O)C(=O)N(Cc1ccc(Cl)c(Cl)c1)CC2,ELISA,<0.01 µM
O=C1c2c(O)c(=O)n(C3CCCC3)c(=O)n2CCN1Cc1ccc(F)cc1,strand transfer,<10 µM

A second listing of 2 rows from above:

smiles,method,result
CC(=O)N1CCOCC1Cn1c(=O)c(O)c2n(c1=O)CCN(Cc1ccc(F)cc1)C2=O,strand transfer,<10 µM
O=C(O)/C(O)=C/C(=O)N(CCc1ccccc1)Cc1ccccc1,strand transfer,<70 µM